PSTVd loop 6 mutant pool in Nicotiana benthamiana

Reference: Wu et al. 2024, doi:10.1371/journal.ppat.1012142.

The pool varies loop 6 of the PSTVd intermediate strain in the pattern UNNNCGNNNG; wild type is UGACCGCGAG (upper and lower strand joined, each 5' to 3', the first 5 letters being the upper strand, closing pairs included).

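A pool of all variants was put on leaves of three Nicotiana benthamiana plants. Progeny were sequenced from the inoculated region (day 5), the margin of the inoculated leaf (day 10) and systemic leaves (day 12).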

Numbers give reads per thousand; 0 = not seen among the reads, higher = more abundant. Each site shows the three plants. "Pool" is the share in the plasmid pool used as inoculum, on the same scale. The inoculated region was read from the minus strand, the other sites from the plus strand. Wild type was 20.7 per thousand in the pool and the most common sequence in every sample (inoculated region 195, 198, 203; leaf margin 629, 591, 734; systemic leaves 942, 870, 868).

sequence,pool,inoculated region,leaf margin,systemic leaves
UGGCCGAGCG,0.261,0.122 0.251 0.166,0.0276 0 0,0 0 0
UGGCCGAGGG,0.301,0.139 0.198 0.203,0.0552 0 0.0232,0 0 0
UGGCCGAGUG,0.248,0.156 0.108 0.111,0 0 0,0 0 0
UGGCCGAUAG,0.235,0.139 0.162 0.203,0.0552 0 0.116,0 0 0.0205
UGGCCGAUCG,0.261,0.0348 0.180 0.111,0.0552 0 0,0 0 0
UGGCCGAUGG,0.366,0.191 0.162 0.184,0.0276 0 0,0 0 0
UGGCCGAUUG,0.392,0.104 0.108 0.129,0.0276 0 0.0232,0 0 0
UGGCCGCAAG,0.0915,0.695 0.808 0.443,0 0.0252 0.0928,0 0 0
UGGCCGCACG,0.170,0.209 0.216 0.184,0.0552 0 0,0 0 0
UGGCCGCAGG,0.118,0.122 0.0898 0.184,0 0 0.0696,0 0 0
UGGCCGCAUG,0.222,0.0869 0.126 0.184,0.0276 0 0.0232,0 0 0
UGGCCGCCAG,0.209,0.539 0.683 0.535,0.0552 0.0757 0.0696,0 0 0
UGGCCGCCCG,0.235,0.139 0.126 0.184,0.0276 0 0.0232,0 0 0
UGGCCGCCGG,0.248,0.0695 0.108 0.184,0.0828 0 0.0464,0 0 0
UGGCCGCCUG,0.275,0.139 0.126 0.0922,0.0276 0.0504 0.0464,0 0 0
UGGCCGCGAG,0.170,0.434 0.323 0.516,0.248 1.66 0.232,0.593 0.909 0.800
UGGCCGCGCG,0.209,0.122 0.144 0.221,0.0552 0 0.0232,0.0180 0.0808 0.0615
UGGCCGCGGG,0.275,0.539 0.754 0.793,0.110 0.177 0.0928,0 0 0
UGGCCGCGUG,0.196,0.712 0.862 0.867,0.110 0.151 0.209,0 0 0.0205
UGGCCGCUAG,0.183,0.869 0.557 0.701,0.138 0.101 0.0696,0 0 0
UGGCCGCUCG,0.196,0.139 0.0719 0.184,0 0 0,0 0 0
UGGCCGCUGG,0.131,0.0869 0.162 0.314,0 0 0,0 0 0
UGGCCGCUUG,0.314,0.139 0.180 0.277,0.0276 0 0.0464,0 0 0
UGGCCGGAAG,0.157,0.0695 0.162 0.129,0 0 0.0232,0 0 0.0615
UGGCCGGACG,0.275,0.0869 0.0719 0.184,0.0276 0 0,0 0 0
UGGCCGGAGG,0.144,0.139 0.0898 0.184,0 0 0.0232,0 0 0
UGGCCGGAUG,0.261,0.174 0.0898 0.240,0.166 0 0,0 0 0
UGGCCGGCAG,0.157,0.226 0.0898 0.0738,0.0276 0 0,0 0 0.0205
UGGCCGGCCG,0.222,0.0869 0.180 0.0738,0 0 0.0232,0 0 0
UGGCCGGCGG,0.196,0.104 0.144 0.203,0 0 0,0 0 0
UGGCCGGCUG,0.327,0.226 0.0898 0.148,0.110 0 0.0232,0 0 0
UGGCCGGGAG,0.170,0.104 0.162 0.240,0.0552 0 0.0696,0 0 0
UGGCCGGGCG,0.131,0.0521 0.126 0.221,0 0 0,0 0 0
UGGCCGGGGG,0.183,0.174 0.126 0.184,0 0 0,0 0 0
UGGCCGGGUG,0.261,0.209 0.144 0.166,0.0552 0 0,0 0 0
UGGCCGGUAG,0.261,0.122 0.0898 0.111,0 0 0.0232,0 0 0
UGGCCGGUCG,0.327,0.122 0.144 0.240,0.0552 0 0.0232,0 0 0
UGGCCGGUGG,0.170,0.139 0.0359 0.221,0.0276 0.0252 0,0 0 0
UGGCCGGUUG,0.209,0.0869 0.234 0.184,0 0 0.0232,0 0 0
UGGCCGUAAG,0.144,0.0521 0.108 0.129,0.0276 0 0.0464,0 0 0
UGGCCGUACG,0.275,0.139 0.198 0.184,0.0552 0 0,0 0 0
UGGCCGUAGG,0.235,0.122 0.198 0.166,0 0 0.0232,0 0 0
UGGCCGUAUA,0.0131,0 0 0,0.0276 0 0,0 0 0
UGGCCGUAUG,0.314,0.0869 0.216 0.221,0.414 0 0,0 0 0
UGGCCGUCAG,0.288,0.191 0.180 0.203,0 0 0.0464,0 0 0
UGGCCGUCCG,0.261,0.0869 0.162 0.221,0 0 0.0232,0 0 0
UGGCCGUCGG,0.301,0.156 0.198 0.129,0.0276 0 0.0232,0 0 0
UGGCCGUCUG,0.340,0.104 0.180 0.221,0 0 0.0232,0 0 0.0205
UGGCCGUGAG,0.222,0.765 0.611 0.682,0.138 0.101 0.0232,0 0.0404 0.0410
UGGCCGUGCG,0.183,0.174 0.0719 0.184,0.0552 0 0.0232,0 0 0
UGGCCGUGGG,0.131,0.0521 0.180 0.129,0.0552 0 0.0232,0 0.0606 0.103
UGGCCGUGUG,0.353,0.174 0.0898 0.166,0.0276 0 0.0232,0 0 0
UGGCCGUUAG,0.327,0.139 0.269 0.148,0 0 0,0 0 0
UGGCCGUUCG,0.222,0.104 0.126 0.111,0.110 0 0.0232,0 0 0
UGGCCGUUGG,0.366,0.0521 0.162 0.350,0 0 0.0464,0 0 0.0205

Samples held 36,220 to 57,551 reads, so the smallest values rest on one or two reads. The authors trace changes outside the varied positions to PCR and sequencing errors or to mutation in the plant; presence does not show that a variant is infectious alone.